The record followed here is patent US20120088662A1, “FUNGICIDAL MIXTURES” (BASF SE, priority 2009, published 2012).

For the assay, the system named is Pyricularia oryzae. Format: cell-based. To be noted: 31 ppm, measured at 405 nm on day 7 after inoculation, active compound-free control =100%.

As for `CCSc1ncnn1C[C@]1(c2ccc(F)cc2)O[C@H]1c1ccccc1Cl` (relative stereo) [I-18, trans-1-[3-(2-chlorophenyl)-2-(4-fluorophenyl)oxiranylmethyl]-5-ethylsulfanyl-1H-[1,2,4]triazole], the “growth (relative growth in % of the pathogens)” value stood at 8%.
